The source of these data is publication PMC10434001, “Glycosylated, Lipid-Binding, CDR-Like Domains of SARS-CoV-2 ORF8 Indicate Unique Sites of Immune Regulation” (Microbiology Spectrum, 2023).

This test concerns the target SARS-CoV-2 ORF8 ([…]) with N-terminal 8×His tag and maltose binding protein (MBP) tag (SARS-CoV-2). The test can be described thus: SEC.

In turn, “SARS-CoV-2 ORF8 ([…]) with N-terminal 8×His tag and maltose binding protein (MBP) tag (a stretch of the chain, letters omitted) (domain or fragment; N-glycosylation (N-acetyl-beta-d-glucosamine, NAG) at N78; N-glycosylation (N-acetyl-beta-d-glucosamine, NAG) at N78; other documents disagree on this pair)” had a stoichiometry N of 2.
